Laboratory results published in patent US9034887B2, “Dihydroorotate dehydrogenase as antifungal drug target and quinazolinone-based inhibitors thereof” (F2G Limited, priority 2008, dated 2015).

The chains behind the UniProt entries cited, without tags or fusion partners. Residues count along the entry.
UniProt Q874I4, 57-444 limits assumed: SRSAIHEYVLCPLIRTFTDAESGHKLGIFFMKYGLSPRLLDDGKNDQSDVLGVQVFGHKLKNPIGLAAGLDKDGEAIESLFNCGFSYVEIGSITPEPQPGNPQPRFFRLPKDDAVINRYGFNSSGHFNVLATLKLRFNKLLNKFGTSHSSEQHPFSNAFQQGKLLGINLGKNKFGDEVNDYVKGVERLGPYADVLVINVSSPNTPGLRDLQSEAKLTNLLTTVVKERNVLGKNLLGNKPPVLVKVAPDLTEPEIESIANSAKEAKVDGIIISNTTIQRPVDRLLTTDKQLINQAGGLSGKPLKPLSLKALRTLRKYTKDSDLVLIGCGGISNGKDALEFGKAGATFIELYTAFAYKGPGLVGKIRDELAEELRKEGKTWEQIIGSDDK
UniProt Q4X169, 89-531 limits assumed: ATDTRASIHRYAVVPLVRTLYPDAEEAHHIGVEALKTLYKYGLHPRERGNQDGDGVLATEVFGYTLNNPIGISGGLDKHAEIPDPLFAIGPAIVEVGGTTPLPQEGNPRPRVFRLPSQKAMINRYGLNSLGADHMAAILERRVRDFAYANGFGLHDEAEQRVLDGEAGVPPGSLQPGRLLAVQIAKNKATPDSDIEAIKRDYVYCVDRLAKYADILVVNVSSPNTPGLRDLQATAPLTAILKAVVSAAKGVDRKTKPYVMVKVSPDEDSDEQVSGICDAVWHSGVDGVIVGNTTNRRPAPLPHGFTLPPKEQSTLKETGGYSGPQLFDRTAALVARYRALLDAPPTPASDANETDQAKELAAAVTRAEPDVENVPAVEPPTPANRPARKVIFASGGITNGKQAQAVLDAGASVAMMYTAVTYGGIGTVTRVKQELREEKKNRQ

How the values were obtained:
[1] = target: Recombinant DHODH from C. albicans (Candida albicans, UniProt Q874I4); experiment: DHODH inhibition screen (DCIP reduction, 600 nm), C. albicans enzyme; type: biochemical; settings: read-out: IC50 values for DHODH inhibitors identified from screens, C. albicans, Table 1, 20 minutes incubation
[2] = target: Recombinant A. fumigatus DHODH (Aspergillus fumigatus, UniProt Q4X169); experiment: DHODH inhibition screen (DCIP reduction, 600 nm), A. fumigatus enzyme
[3] = read-out: IC50 values for Compound Examples 1 to 15 identified from screens, A. fumigatus, Table 3

Compound	IC50 [1] [µM]	IC50 [2, 3] [µM]	IC50 ([2]; read-out: IC50 values for DHODH inhibitors identified from screens, A. fumigatus, Table 1, 24 minutes incubation) [µM]
COc1ccccc1-n1c(SC(C)C)nc2ccc(C)cc2c1=O [Compound Example 2, 2-Isopropylsulfanyl-3-(2-methoxy-phenyl)-6-methyl-3H-quinazolin-4-one]	> 128	2.83	–
COc1ccccc1-n1c(SC(C)C)nc2cc(C)ccc2c1=O [Compound Example 1, 2-Isopropylsulfanyl-3-(2-methoxy-phenyl)-7-methyl-3H-quinazolin-4-one]	36.1	1.46	–
COc1ccccc1-n1c(SC(C)C)nc2cccc(C)c2c1=O [Compound Example 3, 2-Isopropylsulfanyl-3-(2-methoxy-phenyl)-5-methyl-3H-quinazolin-4-one]	> 133	4.52	2.14

Where two headings read alike, the source gives them in different places.
